Reference: paper PMC6492180, “Cytome micronucleus assays with a metabolically competent human derived liver cell line (Huh6): A promising approach for routine testing of chemicals?” (Environmental and Molecular Mutagenesis, 2018)

Test system: Huh6 cells

Substance Aflatoxin B1 [AFB1] has a CBPI of 1.9 ± 0.1.
